Experimental data reported in patent US6362165B1, “Hydroxyphenyl derivatives with HIV integrase inhibitory properties” (Pharmacor Inc., priority 1999, dated 2002).

Target: HIV-1 integrase (Human immunodeficiency virus type 1 group M subtype B, UniProt P04585)
Assay: HIV-1 integrase inhibition assay (procedure of Burke et al.; radiolabeled duplex substrate, U5 end of HIV LTR)
Details: read-out: Anti-integrase activity (IC50) 3,4-dihydroxy derivative; Table 1; 3,4-dihydroxy derivative of the root amino acid, formula Ic
Experimental: For the purposes of Table 1 (and Table 2) the HIV-1 integrase inhibition assay was carried out following a known procedure (Burke, Jr. T. R. et al., J. Med. Chem. 38, 4171-4178 (1995)). A suitable radiolabeled duplex substrate corresponding to the U5 end of the HIV LTR was used.

Question: `O=C(N[C@H](Cc1ccc(OCc2ccccc2)cc1)C(=O)NCCc1ccc(O)c(O)c1)c1ccc(O)c(O)c1` was tested. Which IC50 did it give?
Answer: 42 µM
